Anti-infective test results gathered from many reports (values: NIAID ChemDB through PubChem).

Shared fields: toxicity to cultured cells; endpoint: CC50

Two numbers with a dash give a range or band. CCn: concentration that lowers growth or viability of the cells by n%. An empty or dashed field is not shown. Conditions beyond the fields shown may differ between rows.

| SMILES | method | cell line | result |
|---|---|---|---|
| Nc1ccn([C@H]2O[C@@H](CO)[C@@H](O)[C@@H]2O)c(=O)n1 |  | FLOW 2002 | >100 µg/mL |
| CSc1nsc(-c2ccc(OCCCOc3ccccc3)cc2)c1C#N |  | HEP-2/L-929/VERO | >20 µM |
| CC(C)=CCC/C(C)=C/Cc1c(O)cc(O)c(C/C=C(\C)CCC=C(C)C)c1C(=O)c1c(O)cc(O)cc1O | XTT | 1A2 | <7.8 µg/mL |
| O=C(CCC(=O)N1CCCN(C(=O)CCC(=O)NCCOCCOCCN2C(=O)C=CC2=O)CCCN(C(=O)CCC(=O)NCCOCCOCCN2C(=O)C=CC2=O)CCC1)NCCOCCOCCN1C(=O)C=CC1=O |  | PM1 (PHA stimulated) | 2.5 µM |
| O=c1ccn([C@@H]2C[C@@H](F)[C@H](CO)O2)c(=O)[nH]1 |  | PBM | >100 µM |
| Nc1nc(-c2ccc(NC(=O)NCCN(Cc3ccccc3)Cc3ccccc3)cc2)cs1 |  | HS68 | <5 µM |
| Nc1cc(OC[C@H]2CC[C@@H](CO)O2)ncn1 |  | L1210 | >250 µM |
| COc1ccc(Nc2ccn([C@@H]3O[C@@](CO)(N=[N+]=[N-])[C@@H](O)[C@@H]3F)c(=O)n2)c(OC)c1 | MTT | Hep2.2.15 | 722 µM |
| COc1ccc(CN2C3C4(CO)C(c5ccccc5)C5(CO)C2C2(CO)C(C6C=CC=CC6)C3(CO)C4N(Cc3ccc(OC)cc3)C52)cc1 |  | EPG85-257P | 80 µM |
| Nc1nc(-c2ccc(NC(=O)NCc3ccccc3F)cc2)cs1 |  | HS68 | <4 µM |
| CC(C)N(Cc1ccccc1)C(=O)c1ccc(-c2ccc3c(c2)OCO3)cc1 |  | HEK 293 | <13.5 µM |
| Cc1cc(NC(=O)c2c(C)c(C(=O)C(=O)N[C@@H]3CC[C@H](O)C[C@H]3F)n(C)c2C)ccc1F | MTT | HepG2 | >30 µM |
| c1ccc(COC[C@H]2CC[C@@H](COc3cc(OC[C@H]4CC[C@@H](COCc5ccccc5)O4)ncn3)O2)cc1 |  | CAKI-1 | 33 µM |
| Cc1cc(NC(=O)c2c(C)c(C(=O)C(=O)NC3CCC(OCC(=O)O)CC3)n(C)c2C)ccc1F | MTT | HepG2 | >30 µM |
| Nc1nc2c(sc(=O)n2C/C=C\CO)c(=O)[nH]1 |  | CFU-GM | 85 µM |
| CN(C)c1cccc(CCNC(=O)NCc2ccc(Cl)c(Cl)c2)n1 |  | PBMC | 50 µM |
| CSc1nsc(-c2ccc(OCCCc3ccccc3)cc2)c1C#N |  | HEP-2/L-929/VERO | >20 µM |
| O=C(NCCc1ccc2c(n1)NCCC2)Nc1ccccc1N1CCOCC1 |  | PBMC | 50 µM |
| Cc1cc(NC(=O)c2c(C(C)C)c(C(=O)C(=O)NC3CCC(S(C)(=O)=O)CC3)n(C)c2C)ccc1F | MTT | HepG2 | >30 µM |
| CSc1nsc(-c2ccc(OCCCCOc3ccc([N+](=O)[O-])cc3)cc2)c1C#N |  | HELA-OHIO | 0.5 µM |
| CN(CC(=O)Nc1ccc(-c2csc(N)n2)cc1)C(=O)c1ccncc1 |  | HS68 | >110 µM |
| Nc1ccn([C@@H]2C[C@@H](F)[C@H](CO)O2)c(=O)n1 |  | PBM | >100 µM |
| Nc1ccn([C@@H]2O[C@@H](CO)[C@H](O)[C@H]2O)c(=O)n1 |  | FLOW 2002 | >100 µg/mL |
| COc1cc(OC[C@H]2CC[C@@H](CO)O2)nc(N)n1 |  | PC-3 | >250 µM |
| Cc1cc(NC(=O)c2c(C)c(C(=O)C(=O)NC3(C)CC(O)C3)n(C)c2C2CCCCC2)ccc1F | MTT | HepG2 | >30 µM |
| O=C(NCCc1ccc2c(n1)NCCC2)Nc1c(F)cccc1C(F)(F)F |  | PBMC | 12 µM |
| Nc1nc(-c2ccc(NC(=O)CN(CC3CCCCC3)S(=O)(=O)N3CCOCC3)cc2)cs1 |  | HS68 | >12 µM |
| Nc1ccn([C@H]2O[C@@H](CO)[C@H](O)[C@H]2O)c(=O)n1 |  | FLOW 2002 | 100 µg/mL |
| CC(=O)N1CC[C@@H](NC(=O)C(=O)c2c(C)c(C(=O)Nc3ccc(F)c(C)c3)c(C)n2C)C[C@H]1C | MTT | HepG2 | >30 µM |
| CCCc1cn([C@@H]2C[C@H](F)[C@@H](CO)O2)c(=O)[nH]c1=O |  | F5000 (human embryo) | 250 µM |
| O=C(Cc1ccc(Cl)c(Cl)c1)NCCCc1ccc2c(n1)NCCC2 |  | PBMC | 6.4 µM |
| O=C(O)c1cc(-c2cccs2)nc2ccccc12 |  | HEK 293 | >20 µM |
| Cc1cc(NCCN2CCOCC2)c2ccc3c(ccc4c(NCCN5CCOCC5)cc(C)nc43)c2n1 | MTT | Macrophage line RAW 264.7 | 0.00593 µM |
| CCOC(=O)CCCCCOc1cccc(CN(C(=O)c2ccc(-c3cccc(OCC(C)C)c3)cc2)C(C)C)c1 |  | HepG2 | >20 µM |
| CO[C@H]1O[C@H](Cn2cc(Br)c(=O)[nH]c2=O)[C@H](O)[C@H]1OCc1ccccc1F |  | MOLT 4/C8 | 102 µM |
| O=C(NCCc1ccc2c(n1)NCCC2)NCc1ccc(F)c(Cl)c1F |  | PBMC | 50 µM |
| C=CCCC1=NCC(OC(C)=O)c2cc(OC)c(OC)cc21 |  | RAJI | <7.5 µM |
| CON(C)c1ccn([C@@H]2O[C@@](CO)(N=[N+]=[N-])[C@@H](O)[C@@H]2F)c(=O)n1 | MTT | Hep2.2.15 | >250 µM |
| CCOC(=O)CCCCCOc1cccc(CN(C(=O)c2ccc(-c3ccc4cc[nH]c4c3)cc2)C(C)C)c1 |  | HEK 293 | >20 µM |
| Nc1ccn([C@H]2O[C@@H](CO)[C@H](O)[C@H]2F)c(=O)n1 |  | FLOW 2002 | 100 µg/mL |
| CSc1nsc(-c2ccc(OCCOc3ccc(C#N)cc3)cc2)c1C#N |  | HELA-OHIO | 2 µM |
| Cc1cnn(-c2cccc(CCNC(=O)NCc3ccc(Cl)c(Cl)c3)n2)c1 |  | PBMC | 50 µM |
| Cc1cc(NC(=O)c2c(C)c(C(=O)C(=O)NC3CCC(S(C)(=O)=O)CC3)n(C)c2-c2nccs2)ccc1F | MTT | HepG2 | >30 µM |
| CCOC(=O)c1ccc(OCCCOc2ccc(-c3snc(SC)c3C#N)cc2)cc1 |  | HELA-OHIO | 2 µM |
| Cc1cc(NC(=O)c2c(C)c(C(=O)C(=O)NC34CC(C3)C4)n(C)c2C)ccc1F | MTT | HepG2 | 5–30 µM |
| Nc1nc(Cl)cc(OC[C@@H]2O[C@H](COCc3ccccc3)[C@@H](OCc3ccccc3)[C@H]2OCc2ccccc2)n1 |  | CAKI-1 | 76 µM |
| Nc1ccn([C@@H]2CC[C@H](CO)O2)c(=O)n1 |  | FLOW 2002 | 100 µg/mL |
| OCC12C(c3ccccc3)C3(CO)C4N(Cc5ccccc5)C1C1(CO)C(C5C=CC=CC5)C4(CO)C3N(Cc3ccccc3)C21 |  | EPG85-257DB | 80 µM |
| [N-]=[N+]=N[C@]1(CO)O[C@@H](n2ccc(NCc3cccnc3)nc2=O)[C@@H](F)[C@@H]1O | MTT | Hep2.2.15 | >10 µM |
| CC1(C(=O)NCCOCCOCCN2C(=O)C=CC2=O)CC(C)(C(=O)NCCOCCOCCN2C(=O)C=CC2=O)CC(C)(C(=O)NCCOCCOCCN2C(=O)C=CC2=O)C1 |  | PM1 (PHA stimulated) | 1 µM |
| C/C(=C\CC[C@@H](C)[C@H]1CC[C@@]2(C)C1=CC[C@H]1[C@@]3(C)CC[C@H](O)C(C)(C)[C@@H]3CC[C@@]12C)C(=O)O | XTT | 1A2 | >125 µg/mL |
| CCCNCc1cccc(OCCCCCC(=O)OCC)c1 |  | BJ | >20 µM |
| CCOC(=O)c1ccc(OCCOc2ccc(-c3snc(SC)c3C#N)cc2)cc1 |  | HEP-2/L-929/VERO | 2 µM |
| COc1cc(OC[C@H]2CC[C@@H](COCc3ccccc3)O2)ncn1 |  | L1210 | 83 µM |
| CC(C)N(Cc1cccc(OCCCCCC(=O)OC(=O)O)c1)C(=O)c1ccc(-c2cccc(O)c2)cc1 |  | BJ | >20 µM |
| Cc1cc(Cl)cc(NC(=O)c2c(C)c(C(=O)C(=O)NC3(C)CCC(O)CC3)n(C)c2C)c1 | MTT | HepG2 | 5–30 µM |
| CC1(C(=O)NCCN2C(=O)C=CC2=O)CC(C)(C(=O)NCCN2C(=O)C=CC2=O)CC(C)(C(=O)NCCN2C(=O)C=CC2=O)C1 |  | PM1 (PHA stimulated) | 0.79 µM |
| Nc1nc(=O)n([C@H]2O[C@@H](CO)[C@H](O)[C@H]2F)cc1I |  | FLOW 2002 | 100 µg/mL |
| S=C(NCCc1ccc2c(n1)NCCC2)NC1Cc2ccccc2C1 |  | PBMC | 2.4 µM |
| Nc1nc(N)nc(OC[C@H]2CC[C@@H](CO)O2)n1 |  | CAKI-1 | 210 µM |
| O=C(NCCc1ccc2c(n1)NCCC2)Nc1ccccc1Oc1ccccc1 |  | PBMC | 8.2 µM |
| Nc1ncnc2c1ncn2[C@@H]1C[C@@H](F)[C@H](CO)O1 |  | PBM | >100 µM |
| CO[C@H]1O[C@H](Cn2cc(Cl)c(=O)[nH]c2=O)[C@H](O)[C@H]1OCc1ccccc1F |  | MOLT 4/C8 | 134 µM |
| CN(C)c1ccc(CNC(=O)Nc2ccc(-c3csc(N)n3)cc2)cc1 |  | HS68 | <18 µM |

Again, the opening 7 rows:

Nc1ccn([C@H]2O[C@@H](CO)[C@@H](O)[C@@H]2O)c(=O)n1 ; cell line: FLOW 2002 ; result: >100 µg/mL
CSc1nsc(-c2ccc(OCCCOc3ccccc3)cc2)c1C#N ; cell line: HEP-2/L-929/VERO ; result: >20 µM
CC(C)=CCC/C(C)=C/Cc1c(O)cc(O)c(C/C=C(\C)CCC=C(C)C)c1C(=O)c1c(O)cc(O)cc1O ; method: XTT ; cell line: 1A2 ; result: <7.8 µg/mL
O=C(CCC(=O)N1CCCN(C(=O)CCC(=O)NCCOCCOCCN2C(=O)C=CC2=O)CCCN(C(=O)CCC(=O)NCCOCCOCCN2C(=O)C=CC2=O)CCC1)NCCOCCOCCN1C(=O)C=CC1=O ; cell line: PM1 (PHA stimulated) ; result: 2.5 µM
O=c1ccn([C@@H]2C[C@@H](F)[C@H](CO)O2)c(=O)[nH]1 ; cell line: PBM ; result: >100 µM
Nc1nc(-c2ccc(NC(=O)NCCN(Cc3ccccc3)Cc3ccccc3)cc2)cs1 ; cell line: HS68 ; result: <5 µM
Nc1cc(OC[C@H]2CC[C@@H](CO)O2)ncn1 ; cell line: L1210 ; result: >250 µM